Tested on: haemagglutinin
Test: Average Φ and Ψ angles of Neu5Ac-α-(2-3)-Gal from PDB X-ray crystal structures with haemagglutinin
Parameters: species or system influenza
Settings: PDB average of 1RVX, 1RV0, 1JSN, 3HTP, 1MQM

For CC(=O)NC1C(O)CC(OC2C(O)C(O)OC(CO)C2O)(C(=O)O)OC1C(O)C(O)CO (stereo not drawn) [Neu5Ac-α-(2-3)-Gal], the “Phi Φ” value was 188.06 and the “Psi Ψ” value was 328.38.

Reference: US9605014B2, “Glycomimetics to inhibit pathogen-host interactions” (priority 2012, dated 2017)
